# Results deposited as PubChem BioAssay AID1259414 (Drosophila RNAi Screening Center, 2018)
# Purpose: 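Fly genes that alter Wolbachia amount inside host cells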 (primary screen)
# System: Drosophila JW18 cells infected with Wolbachia
# Reagents: long dsRNA against Drosophila genes, 0.25 µg dsRNA per well of a 384-well plate
# Timing: 5 days
# Conditions: cells persistently infected with Wolbachia before knock-down; no added drug
# Detection: 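Automated imaging of bacterial rRNA staining divided by host cell count, reported as plate-normalised robust z-score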
# Reading the numbers: Wolbachia per cell robust z: higher = more Wolbachia per host cell than the plate typical
# Call rule: 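Hit when robust z is 1.5 or more, or -1.5 or less, in at least two of three replicates; excludes dsRNAs with several or no targets, genes not expressed in JW18 and well A1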
# The deposit covers about 24,000 reagents; shown is an unselected part of those with a known target gene and a result. Of all reagents, about 1,210 (5%) got an active call. 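Inactive calls also include excluded dsRNAs with several or no targets, genes unexpressed in JW18, and well A1, regardless of score.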 No sequences are given here.
gene knocked down,dsRNA,"Wolbachia per cell robust z, rep 1","Wolbachia per cell robust z, rep 2","Wolbachia per cell robust z, rep 3",Outcome
CG30053,DRSC07260,-0.511,-0.888,0.142,inactive
CG3124,DRSC23062,0.178,0.999,0.961,inactive
CG3124,DRSC26288,0.17,1.07,-0.854,inactive
Axud1,DRSC00270,0.136,0.392,0.227,inactive
beag,DRSC15296,0.428,0.585,0.61,inactive
GCS1,DRSC19744,0.0132,-0.0222,1.42,inactive
GCS1,DRSC25625,0.673,1.08,-0.543,inactive
sd,DRSC20370,-4.42,1.02,0.906,inactive
sd,DRSC37640,-0.904,-1.58,-0.95,inactive
sbr,DRSC19770,0.562,-2.49,-0.0165,inactive
sbr,DRSC20368,-0.0087,0.472,0.616,inactive
sbr,DRSC29803,0.369,-1.82,0.335,inactive
Glut1,DRSC07927,-4.14,0.311,0.152,inactive
Glut1,DRSC08378,0.838,1.49,0.675,inactive
Glut1,DRSC08662,0.459,0.986,0.44,inactive
Glut1,DRSC27241,0.323,0.831,0.412,inactive
Glut1,DRSC39042,0.447,-2.41,-0.497,inactive
Glut1,DRSC41301,-1.7,0.813,1.03,inactive
Gycalpha99B,DRSC16690,1.03,0.775,0.475,inactive
Gycalpha99B,DRSC24782,0.29,-1.65,-0.979,inactive
CG16749,DRSC15146,-1.13,-0.148,-4.01,inactive
CG16749,DRSC25605,-0.894,-0.0947,-2.15,inactive
CG32099,DRSC21352,-0.0804,-0.0605,-0.789,inactive
CG14658,DRSC12244,1.18,0.145,0.48,inactive
Mical,DRSC14349,1.34,-2.43,1.2,inactive
Mical,DRSC14351,0.23,-0.907,-6.22,inactive
Mical,DRSC15365,0.904,1.08,0.253,inactive
Mical,DRSC15366,-0.153,-0.0049,0.335,inactive

An excerpt taken from the entries so far:
gene knocked down,dsRNA,"Wolbachia per cell robust z, rep 1","Wolbachia per cell robust z, rep 2","Wolbachia per cell robust z, rep 3",Outcome
CG3124,DRSC26288,0.17,1.07,-0.854,inactive
Axud1,DRSC00270,0.136,0.392,0.227,inactive
